Source: patent US20250257099A1 (priority 2022, published 2025)

Assays:
SARS-CoV-2 S protein = SARS-CoV-2 S protein (Severe acute respiratory syndrome coronavirus 2, UniProt P0DTC2); experiment: cell-based
SARS-CoV-2 = conditions: 72 h

## CC[C@H](C)[C@H](NC(=O)[C@H](Cc1ccc(O)cc1)NC(=O)[C@H](CO)NC(=O)[C@H](CCC(=O)O)NC(=O)[C@H](CC(N)=O)NC(=O)[C@H](CC(C)C)NC(=O)[C@H](C)NC(=O)[C@H](CCCCN)NC(=O)[C@@H](NC(=O)[C@@H](NC(=O)[C@H](CCC(N)=O)NC(=O)[C@H](CCC(N)=O)NC(=O)[C@H](CC(C)C)NC(=O)[C@H](CO)NC(=O)[C@H](CC(C)C)NC(=O)[C@H](CCSC)NC(=O)[C@H](CCC(=O)O)NC(=O)[C@H](Cc1ccc(O)cc1)NC(=O)[C@@H](NC(=O)[C@H](CC(C)C)NC(=O)[C@H](CC(=O)O)NC(=O)[C@H](CC(C)C)NC(=O)[C@H](CC(C)C)NC(=O)[C@@H](NC(=O)[C@@H](NC(=O)[C@H](CC(N)=O)NC(=O)[C@@H](NC(=O)[C@H](CCC(N)=O)NC(=O)[C@@H](NC(=O)[C@H](CC(C)C)NC(=O)[C@H](CO)NC(C)=O)[C@@H](C)O)[C@@H](C)CC)[C@@H](C)O)[C@@H](C)O)[C@@H](C)O)C(C)C)C(C)C)C(=O)N[C@@H](CC(=O)O)C(=O)N[C@@H](CC(C)C)C(=O)N[C@@H](CCCCN)C(=O)N[C@@H](CCC(=O)O)C(=O)N[C@@H](CC(C)C)C(=O)NCC(=O)N[C@@H](CO)C(=O)NCC(=O)N[C@@H](CO)C(=O)NCC(=O)N[C@@H](CSCC(=O)NCCOCCOCCOCCOCCC(=O)O[C@H]1CC[C@@]2(C)C(=CC[C@H]3[C@@H]4CC[C@H]([C@H](C)CCCC(C)C)[C@@]4(C)CC[C@@H]32)C1)C(N)=O [MERS-CoV C-lipopeptide]
SARS-CoV-2 S protein
  IC50: > 650 nM
SARS-CoV-2
  IC50: ~90 nM
